Test results: patent US10420831B2, “Inactivation of viruses by delipidation” (priority 2016, dated 2019)
Read-outs that look alike come from different tables or passages of the source. Marks after values point to notes of the source that are not given here.

Tests used:
[1] = test system: human influenza virus H1N1 A/WSN/33 strain; conditions: for Cholesterol / Cholesterol, percentage compared to the mock treatment: IFV
[2] = test system: human influenza virus H1N1 A/WSN/33 strain; conditions: IFV, 50 mM MBCD
PRRSV-RESP strain = experiment: Cholesterol content of treated PRRSV (Amplex Red cholesterol assay); conditions: 60 minutes at 37° C.
[3] = 10% DIPE, end-over-end rotation at 37° C. for 30 minutes

CC(C)OC(C)C [DIPE, diisopropyl ether]
cholesterol removed from IFV ([1]; 10% DIPE, 30 minute treatment): about 80% | cholesterol removed from IFV ([1]; 12% DIPE, 37° C., 30 minutes): about 80% | Cholesterol ([1]; 2% DIPE, 37° C., 30 minutes): 6.61 µg/mL | Cholesterol, percentage compared to the mock treatment ([1]; 2% DIPE, 37° C., 30 minutes): (80.0%) ^a | Cholesterol ([1]; 4% DIPE, 37° C., 30 minutes): 4.88 µg/mL | Cholesterol, percentage compared to the mock treatment ([1]; 4% DIPE, 37° C., 30 minutes): (59.1%) ^a | Cholesterol ([1]; 8% DIPE, 37° C., 30 minutes): 3.47 µg/mL | Cholesterol, percentage compared to the mock treatment ([1]; 8% DIPE, 37° C., 30 minutes): (42.0%) ^a | Cholesterol [1, 3]: 1.32 µg/mL | Cholesterol, percentage compared to the mock treatment [1, 3]: (21.4%) ^c | Cholesterol ([1]; 12% DIPE, 37° C., 30 minutes): 1.81 µg/mL | Cholesterol, percentage compared to the mock treatment ([1]; 12% DIPE, 37° C., 30 minutes): (21.9%) ^a

methyl β-cyclodextrin [MBCD]
Protein ([2]; 37° C., 30 minutes): 0.33 mg/mL | protein content reduction ([2]; 45 minutes): 6% | Protein ([2]; end-over-end rotation at 37° C. for 45 minutes): 0.39 mg/mL | Cholesterol ([1]; 50 mM MBCD, 37° C., 30 minutes): 0.14 µg/mL | Cholesterol ([1]; 50 mM MBCD, end-over-end rotation at 37° C. for 45 minutes): 0.15 µg/mL | Cholesterol Content (PRRSV-RESP strain; 5 mM MBCD): 9.82 µg/mL | Cholesterol Content, percentage compared to the mock treatment (PRRSV-RESP strain; 5 mM MBCD): 84% | Cholesterol Content (PRRSV-RESP strain; 10 mM MBCD): 4.66 µg/mL | Cholesterol Content, percentage compared to the mock treatment (PRRSV-RESP strain; 10 mM MBCD): 40% | Cholesterol Content (PRRSV-RESP strain; 20 mM MBCD): 4.46 µg/mL | Cholesterol Content, percentage compared to the mock treatment (PRRSV-RESP strain; 20 mM MBCD): 38% | Cholesterol Content (PRRSV-RESP strain; 30 mM MBCD): 4.00 µg/mL | Cholesterol Content, percentage compared to the mock treatment (PRRSV-RESP strain; 30 mM MBCD): 34% | Cholesterol Content (PRRSV-RESP strain; 50 mM MBCD): 3.29 µg/mL
